Measured values: patent US20240033341A1
Where two headings read alike, the source gives them in different places.

Columns and labels:
[1] = molecular target: 426c.TM4 gp120 (HIV-1 (clade C strain 426c, engineered)); experiment: flow cytometry of yeast displaying 426c.TM4 gp120 (panel 426c), Pre-Sort
[2] = molecular target: 426c.TM4 gp120 (HIV-1 (clade C strain 426c, engineered))
[3] = molecular target: 426c.TM4 gp120 (HIV-1 (clade C strain 426c, engineered)); remark: listed apart in the source
[4] = molecular target: 426c.TM4 gp120 (HIV-1 (clade C strain 426c, engineered)); experiment: flow cytometry of yeast displaying 426c.TM4 gp120, 3rd sort
[5] = molecular target: IGT1 gp120 (HIV-1 (clade C strain 426c, engineered)); experiment: SPR, IgG immobilized on CM5 chip, monomeric gp120 core as analyte, 1:1 model
[6] = molecular target: IGT2 gp120 (HIV-1 (clade C strain 426c, engineered)); experiment: as above
[7] = molecular target: 426c.TM4 gp120 (HIV-1 (clade C strain 426c, engineered)); remark: listed apart in the source
[8] = molecular target: IGT1 gp120 (HIV-1 (clade C strain 426c, engineered)); experiment: ELISA, gp120 coated on the plate, IgG titrated
[9] = molecular target: IGT2 gp120 (HIV-1 (clade C strain 426c, engineered)); experiment: ELISA, gp120 coated on the plate, IgG titrated
[10] = molecular target: 426c.TM4 gp120 (HIV-1 (clade C strain 426c, engineered)); remark: listed apart in the source
[11] = molecular target: 426c.TM4 gp120 (HIV-1 (clade C strain 426c, engineered)); experiment: flow cytometry of yeast displaying 426c.TM4 gp120, pre-sort

## IOMA iGL IgG (antibody)
[1]
  number in the upper right quadrant (α-cMyc-AF488 positive and IOMA iGL + α-IgG AF647 positive; percent of events, unit not given): 0.15
[2]
  number in the upper right quadrant (α-cMyc-AF488 positive and IOMA iGL + α-IgG AF647 positive; percent of events, unit not given): 0.029
[3]
  number in the upper right quadrant (α-cMyc-AF488 positive and IOMA iGL + α-IgG AF647 positive; percent of events, unit not given): 0.1
[4]
  number in the upper right quadrant (cMyc-AF488 positive and IOMA iGL + α-IgG-AF647 positive; percent of events, unit not given): 0.029
[5]
  Kd: 30 µM
[6]
  Kd: 0.5 µM
[7]
  number in the upper right quadrant (α-cMyc-AF488 positive and IOMA iGL + α-IgG AF647 positive; percent of events, unit not given): 0.069
[8]
  EC50 (read off the curve): 3 µg/mL
[9]
  EC50 (read off the curve): 2 µg/mL
[10]
  number in the upper right quadrant (α-cMyc-AF488 positive and IOMA iGL + α-IgG AF647 positive; percent of events, unit not given): 0.09
[11]
  number in the upper right quadrant (cMyc-AF488 positive and IOMA iGL + α-IgG-AF647 positive; percent of events, unit not given): 0.15
